In this test the target is Botulinum neurotoxin type A2 [1-425] (Clostridium botulinum, UniProt Q45894). The conditions noted are these: pH 7.3.

The chains behind the UniProt entries cited, without tags or fusion partners. Residues count along the entry.
UniProt Q45894, 1-425: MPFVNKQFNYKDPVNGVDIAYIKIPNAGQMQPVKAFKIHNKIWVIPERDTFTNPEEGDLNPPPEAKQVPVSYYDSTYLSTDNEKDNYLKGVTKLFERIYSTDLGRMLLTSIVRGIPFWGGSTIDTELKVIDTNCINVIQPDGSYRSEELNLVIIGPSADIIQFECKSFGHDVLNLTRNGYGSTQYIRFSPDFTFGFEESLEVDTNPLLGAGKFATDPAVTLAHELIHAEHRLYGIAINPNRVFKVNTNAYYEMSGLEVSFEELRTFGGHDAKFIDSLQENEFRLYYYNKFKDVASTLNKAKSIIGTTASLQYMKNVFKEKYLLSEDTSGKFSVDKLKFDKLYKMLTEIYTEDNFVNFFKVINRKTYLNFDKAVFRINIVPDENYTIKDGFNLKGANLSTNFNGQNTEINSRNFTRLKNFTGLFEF

As for `COC(=O)CC[C@@H](C)[C@H]1CCC2C3C(C[C@H](OC(C)=O)[C@@]21C)[C@@]1(C)CC[C@H](NCCNc2ccnc4cc(Cl)ccc24)C[C@H]1C[C@H]3OC(C)=O` (stereo partly drawn), the half-maximal inhibitory concentration (IC50) is 17 µM. Then `COC(=O)CC[C@@H](C)[C@H]1CCC2C3C(C[C@H](OC(C)=O)[C@@]21C)[C@@]1(C)CC[C@@H](NCCNc2ccnc4cc(Cl)ccc24)C[C@H]1C[C@H]3OC(C)=O` (stereo partly drawn), with 7 µM. For `CC(=O)O[C@@H]1CC[C@]2(C)C3C[C@H](OC(C)=O)[C@@]4(C)C(CC[C@@H]4[C@H](C)CCCNCCNc4ccnc5cc(Cl)ccc45)C3[C@H](OC(C)=O)C[C@@H]2C1` (stereo partly drawn) the value was 10 µM.

Values taken from BindingDB's records for 17417831.
